Measured values: paper PMC3210103

Protein sequences, listed by entry. Tags and fused reporters are not part of them. Lines headed by an entry give the natural chain unless they say otherwise; changes in a name come on top.
UniProt Q16665: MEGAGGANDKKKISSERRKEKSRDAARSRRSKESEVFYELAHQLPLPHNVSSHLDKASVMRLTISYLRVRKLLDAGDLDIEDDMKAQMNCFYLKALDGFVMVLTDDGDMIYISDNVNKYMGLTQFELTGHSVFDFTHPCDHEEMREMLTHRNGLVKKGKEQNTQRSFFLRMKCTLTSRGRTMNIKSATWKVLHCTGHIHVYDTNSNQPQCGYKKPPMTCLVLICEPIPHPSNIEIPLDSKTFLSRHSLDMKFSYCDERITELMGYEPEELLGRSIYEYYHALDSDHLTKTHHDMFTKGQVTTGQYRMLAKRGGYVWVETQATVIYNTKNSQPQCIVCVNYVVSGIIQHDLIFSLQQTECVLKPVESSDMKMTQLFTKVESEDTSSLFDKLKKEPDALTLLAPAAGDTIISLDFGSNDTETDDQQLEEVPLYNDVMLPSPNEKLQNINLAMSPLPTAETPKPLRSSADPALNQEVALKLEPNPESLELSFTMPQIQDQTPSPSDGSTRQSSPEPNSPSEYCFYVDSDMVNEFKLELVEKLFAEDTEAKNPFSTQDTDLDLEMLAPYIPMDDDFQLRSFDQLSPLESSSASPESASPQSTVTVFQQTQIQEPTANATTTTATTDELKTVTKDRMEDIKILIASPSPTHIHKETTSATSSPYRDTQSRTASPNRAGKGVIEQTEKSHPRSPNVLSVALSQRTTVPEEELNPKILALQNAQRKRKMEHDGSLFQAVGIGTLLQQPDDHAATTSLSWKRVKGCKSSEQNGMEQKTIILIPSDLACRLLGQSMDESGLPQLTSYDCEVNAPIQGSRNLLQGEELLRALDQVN

Key:
Vpr (HIV-1) = test: EMSA supershift; details: anti-Vpr gives C2 and abolishes C1, non-immune serum does not, direct contact not shown; 10 μg nuclear extract, ~100,000 cpm probe, 4°C, 30 min; antibody pre-incubated 1 h at 4°C; salt and pH not given; protein in an extract; label: 32P
HIF-1α (c-myc-tagged) = HIF-1α (c-myc-tagged) (UniProt Q16665); test: EMSA supershift; details: anti-c-myc gives C2, partial shift of C1, normal mouse serum does not; 10 μg nuclear extract, ~100,000 cpm probe, 4°C, 30 min; antibody pre-incubated 1 h at 4°C; salt and pH not given; protein in an extract; residues 1-826; protein details: c-myc; label: 32P

**Q.** Does “TCCCAGGGAGGCGTGGCCTGG / CCAGGCCACGCCTCCCT [HIV-1 LTR GC-rich probe (-82/-61)]” bind (Vpr (HIV-1))?
**A.** binds

**Q.** Does “TCCCAGGGAGGCGTGGCCTGG / CCAGGCCACGCCTCCCT [HIV-1 LTR GC-rich probe (-82/-61)]” bind (HIF-1α (c-myc-tagged))?
**A.** binds

Construct, isoform or probe ends are uncertain for at least one entry. Where cells or extracts were used, other partners may take part.
